Reference: PubChem BioAssay AID1950 (The Scripps Research Institute Molecular Screening Center, 2009)
This is a selection; strong and weak results do not stand in their true shares. Active and inactive are the calls of the source. No stated cut-off is given here; in the data, active means inhibition above about 28%; inactive means the rest.

What follows are compounds tested on EBNA-1 (Epstein-Barr virus nuclear antigen 1), Human herpesvirus 4 (assay: EBNA-1 DNA-binding inhibitors, primary screen, biochemical, fluorescence polarization (AID 1950)). Details: at 14.8 µM, stronger effect = higher value.

Q: `Oc1ccccc1CNc1ccccn1` was tested. Which inhibition did it give?
A: inactive: 8.67%

Q: `Cc1ccc(OP(=O)(Nc2nccs2)Oc2ccc(C)cc2)cc1` was tested. Which inhibition did it give?
A: inactive: -1.59%

Q: `COc1ccccc1OP(=O)(Nc1ccc(C)cn1)Oc1ccccc1OC` was tested. Which inhibition did it give?
A: inactive: -6.41%

Q: For `Clc1ccc(Cl)c(NC2=NCC(CBr)S2)c1` (configuration not stated), which inhibition is on record?
A: inactive: 0.4%

Q: With `CN1CCCC(OC(=O)C(c2ccccc2)c2ccccc2)C1` (configuration not stated) as the compound, how does the inhibition read?
A: inactive: 7.03%

Q: `NC(=O)c1cc([N+](=O)[O-])cc([N+](=O)[O-])c1N` was tested. Which inhibition did it give?
A: inactive: -10.9%

Q: Which inhibition does the source give for `Cc1ccc(N/C(=N/P(=O)(N2CCOCC2)N2CCOCC2)N2CCOCC2)cc1` here?
A: inactive: -7.98%

Q: `CN(C(=O)Cc1ccc(Cl)c(Cl)c1)[C@H]1CCCC[C@H]1N1CCCC1` was tested. Which inhibition did it give?
A: inactive: -2.52%

Q: `CC(=O)Nc1ccc(Oc2c([N+](=O)[O-])cc([N+](=O)[O-])cc2[N+](=O)[O-])cc1` was tested. Which inhibition did it give?
A: inactive: -3.9%

Q: With `CC(=O)Nc1ccc([As](=O)(O)O)c(O)c1` as the compound, how does the inhibition read?
A: inactive: -15.2%

Q: `CC(=O)c1ccc(N2CC2c2ccncc2)cc1` (configuration not stated) was tested. Which inhibition did it give?
A: inactive: 0.39%

Q: `C[C@@H]1C=CCP(=O)(Oc2ccccc2)O1` (some centres not stated) was tested. Which inhibition did it give?
A: inactive: 8.18%

Q: Which inhibition does the source give for `C[C@H]1OP(=O)(Oc2ccccc2)C[C@@H]2O[C@@H]21` (some centres not stated) here?
A: inactive: -4.63%

Q: Which inhibition does the source give for `CC(C)(C)C(=O)NC(Sc1ccccc1)C(Cl)(Cl)Cl` (configuration not stated) here?
A: inactive: -7.45%

Q: For `CCOc1ccc(C2=NCC(CBr)S2)cc1` (configuration not stated), which inhibition is on record?
A: inactive: 4.37%

Q: For `O=P1(Nc2nc3ccc(Cl)cc3s2)COc2ccccc2O1` (configuration not stated), which inhibition is on record?
A: inactive: -1.44%

Q: `CN(C)C(=O)Oc1noc2ccccc12` was tested. Which inhibition did it give?
A: inactive: -2.22%

Q: How did the inhibition turn out when `Cc1ccccc1OP(=O)(Nc1ccccn1)Oc1ccccc1C` was run?
A: inactive: -1.91%

Q: For `CC(=O)NC(SC(=S)N(CC(C)C)CC(C)C)C(Cl)(Cl)Cl` (configuration not stated), which inhibition is on record?
A: inactive: -1.59%

Q: Which inhibition does the source give for `Cc1ccc(OP(=O)(Nc2ccccn2)Oc2ccc(C)cc2)cc1` here?
A: inactive: 3.33%

Q: Which inhibition does the source give for `COC(=O)c1cc2c(s1)N=C(c1ccccc1)N(C)P2(=O)N1CCOCC1` (configuration not stated) here?
A: inactive: -3.21%

Q: For `CCC(=O)N1C2C3N(C(=O)CC)C1C1N(C(=O)CC)C(C(N1C(=O)CC)N3C(=O)CC)N2C(=O)CC`, which inhibition is on record?
A: inactive: 2.4%

Q: How did the inhibition turn out when `O=C(OC1CN2CCC1CC2)c1ccccc1` (configuration not stated) was run?
A: inactive: -23.6%

Q: With `O=C(NC1CCS(=O)(=O)C1)NP(=S)(Oc1ccccc1)Oc1ccccc1` (configuration not stated) as the compound, how does the inhibition read?
A: inactive: 3.23%

Q: How did the inhibition turn out when `CCNC(=S)/N=C(\N)N[N+](=O)[O-]` was run?
A: inactive: -1.1%

Q: How did the inhibition turn out when `Cc1ccc(NP(=O)(Oc2cccc(C)c2)Oc2cccc(C)c2)nc1` was run?
A: inactive: -16.9%

Q: With `CCOC(=O)NC(Sc1ccccc1)C(Cl)(Cl)Cl` (configuration not stated) as the compound, how does the inhibition read?
A: inactive: 0.44%

Q: With `c1ccc(-c2nn[nH]n2)c(-c2nn[nH]n2)c1` as the compound, how does the inhibition read?
A: inactive: -0.07%

Q: For `Nc1ccc([As](=O)(O)c2ccc([N+](=O)[O-])cc2)cc1`, which inhibition is on record?
A: inactive: 5.99%

Q: With `C(Cc1nn[nH]n1)Cc1nn[nH]n1` as the compound, how does the inhibition read?
A: inactive: 7.41%

Q: For `O=C(OC1CN2CCC1CC2)c1cccc(Cl)c1` (configuration not stated), which inhibition is on record?
A: inactive: 4.88%

Q: For `CC(=O)NC(SC(=S)N(C)C)C(Cl)(Cl)Cl` (configuration not stated), which inhibition is on record?
A: inactive: 14.4%

Q: For `O=[N+]([O-])c1ncn(CCn2cnc([N+](=O)[O-])n2)n1`, which inhibition is on record?
A: inactive: -1.96%

Q: How did the inhibition turn out when `O=[N+]([O-])c1ccc(O)c(/C=N/Nc2ccc([N+](=O)[O-])cc2[N+](=O)[O-])c1` was run?
A: inactive: -11.4%

Q: For `O=[As](O)(c1ccccc1)c1ccc(O)cc1`, which inhibition is on record?
A: inactive: 0.18%

Q: For `C[C@H]1OP(=O)(Oc2ccccc2)[C@H](O)[C@H](O)[C@H]1N=[N+]=[N-]` (some centres not stated), which inhibition is on record?
A: inactive: -7.39%

Q: With `O=P(Nc1nc2ccccc2s1)(c1ccccc1)c1ccccc1` as the compound, how does the inhibition read?
A: inactive: 9.86%

Q: With `CN(C)C1(CNC(=O)c2ccc(Cl)c(S(N)(=O)=O)c2)CCCCC1` as the compound, how does the inhibition read?
A: inactive: -16.1%

Q: How did the inhibition turn out when `O=P(Nc1ccccn1)(c1ccc(Br)cc1)c1ccc(Br)cc1` was run?
A: inactive: -3.67%

Q: With `c1nnnn1CCn1cnnn1` as the compound, how does the inhibition read?
A: inactive: -10.5%

Q: With `O=P(Nc1nccs1)(c1ccccc1)c1ccccc1` as the compound, how does the inhibition read?
A: inactive: 4.73%

Q: For `CC(C)C(=O)NC(Sc1ccccc1)C(Cl)(Cl)Cl` (configuration not stated), which inhibition is on record?
A: inactive: -8.35%
